How the values were obtained:
[1] = test system: T1, #115: [5-Fam]TRIDEANQRATK[DABCYL]-Nle, BoNT/A cleavable peptide
T1 sequence: TRIDEANQRATKX

[2] = test system: T2, #116: [4-Mu]TRIDEANQRATK[DABCYL]-Nle, BoNT/A cleavable peptide
T2 sequence: TRIDEANQRATKX

Botulinum neurotoxin type A (BoNT/A), form not stated
KM [1]: 4.99 µM | KM [2]: 2.62 µM

Trypsin
KM [1]: 9.67 µM | KM [2]: 3.4 µM

From patent publication US20140235490
